Results as given in paper PMC8664216 (PLoS Neglected Tropical Diseases, 2021).

Experiments:
[1] = system: CHIKV-LR trans-replicase system; assay: CHIKV trans-replicase system, tomato marker by flow cytometry; format: cell-based, Chikungunya virus; details: marker-positive Huh7 cells, 10 μM tomatidine, 24 h post-transfection
CHIKV-LR = assay: Western blot of CHIKV nsP2, E1 and capsid proteins; format: cell-based, Chikungunya virus; details: 9 hpi
[2] = Huh7, MOI 10, 10 μM tomatidine added at 4 hpi
[3] = Huh7, MOI 10, 10 μM tomatidine added at 6 hpi
[4] = Huh7, MOI 10, 10 μM tomatidine added simultaneous to infection

## C[C@H]1CC[C@]2(NC1)O[C@H]1C[C@H]3[C@@H]4CC[C@H]5C[C@@H](O)CC[C@]5(C)[C@H]4CC[C@]3(C)[C@H]1[C@@H]2C [tomatidine, Tomatidine]
[1]
  MFI of tomato marker relative to EtOH control: 1.0±0.06
CHIKV-LR; [2]
  C (capsid) expression, fold-change to EtOH control: 0.5±0.2 fold
  E1 expression, fold-change to EtOH control: 0.3±0.1 fold
  nsP2 expression, fold-change to EtOH control: 0.5±0.1 fold
CHIKV-LR; [3]
  C (capsid) expression, fold-change to EtOH control: 0.6±0.1 fold
  E1 expression, fold-change to EtOH control: 0.4± 0.2 fold
  nsP2 expression, fold-change to EtOH control: 0.6±0.2 fold
CHIKV-LR; [4]
  C (capsid) expression, fold-change to EtOH control: 0.46±0.1 fold
  E1 expression, fold-change to EtOH control: 0.18±0.1 fold
  nsP2 expression, fold-change to EtOH control: 0.5±0.1 fold
